A mixed list of measured activities; the numbers were collected in NIAID ChemDB.

Shared fields: growth or infection tests; species: Candida albicans; endpoint: MFC

Blank or dashed fields: not listed here. Conditions beyond the fields shown may differ between rows.

structure	strain or isolate	method	value
C[N+](C)(C)CCOP(=O)([O-])OCCCCCC1CCCCCCCCCCCCCC1	ATCC 10231	broth dilution	8 µg/mL
Clc1ccc(CO/N=C2/c3ccc(Cl)cc3OCC2n2cncn2)cc1	ATCC 10231		>64 µg/mL
NC(=NC1CCCC1)c1ccc(-c2ccc(-c3ccc(C(N)=NC4CCCC4)cc3)o2)cc1	A39		25 µg/mL
c1ccc(C(c2ccccc2)n2cnc3ccccc32)cc1		broth dilution	>256 µg/mL
C[C@@H]1[C@H](O)[C@@H](C)/C=C/C=C/C=C/C=C/C=C/C=C/C=C/[C@H](O[C@@H]2O[C@H](C)[C@@H](O)[C@H](N)[C@@H]2O)C[C@@H]2O[C@](O)(C[C@@H](O)C[C@@H](O)[C@H](O)CC[C@@H](O)C[C@@H](O)CC(=O)O[C@H]1C)C[C@H](O)[C@H]2C(=O)O	Clinical isolate 44A	broth dilution	8 µg/mL
COc1ccc(C(c2ccc(OC)cc2)n2ccnc2)cc1		broth dilution	>256 µg/mL
Fc1ccc(CO/N=C2\c3ccccc3OCC2n2cncn2)cc1	ATCC 10231		>64 µg/mL
CCOc1ccc2nc3cc(N=C4NC(=O)/C(=C\C=C\c5ccc([N+](=O)[O-])o5)S4)ccc3c(N)c2c1	ATCC 60193	broth dilution	>1000 µg/mL
CC(C)CC1NC(=O)CC(CCCCCCCCC(C)O)OC(=O)C(CC(C)C)NC(=O)C(CC(C)C)NC(=O)C(CC(C)C)NC(=O)C(C(C)C)NC(=O)C(CC(=O)O)NC(=O)C(CC(C)C)NC1=O	Clinical isolate	visual reading	2 µg/mL
C[N+](C)(C)CCOP(=O)([O-])OCCCCCCCCCCCC1C2CC3CC(C2)CC1C3	Clinical isolate 44A	broth dilution	8 µg/mL
Clc1ccc(C(c2ccccc2)n2nnc3ccccc32)cc1		broth dilution	>256 µg/mL
Clc1ccc(CO/N=C2/c3ccc(Cl)cc3OCC2n2cncn2)c(Cl)c1	ATCC 10231		>64 µg/mL
Clc1ccc(C(c2ccccc2)N2CCN(CCn3cncn3)CC2)cc1		broth dilution	32 µg/mL
Clc1ccc(CO/N=C2/c3ccc(Cl)cc3OCC2n2cnnc2)c(Cl)c1	ATCC 10231		>64 µg/mL

The first 2 rows once more:

structure	strain or isolate	method	value
C[N+](C)(C)CCOP(=O)([O-])OCCCCCC1CCCCCCCCCCCCCC1	ATCC 10231	broth dilution	8 µg/mL
Clc1ccc(CO/N=C2/c3ccc(Cl)cc3OCC2n2cncn2)cc1	ATCC 10231		>64 µg/mL